Values joined by “and” are separate entries in the source; they are usually repeats but may differ in a detail not shown here. Equal entries are not always repeated.
Key:
U937 cells = experiment: XTT cytotoxicity assay in U937 cells; conditions: IC50 in Vero cell line / IC50 in U937
Experimental: (§1) HeLa, U937, and Vero cell lines were maintained in culture flasks containing Eagle’s Minimum Essential Medium supplemented with 10% heat-inactivated FBS and 1% antibiotics (100 U/mL penicillin, 100 μg/mL streptomycin, and 250 μg/mL fungizone). The cells were grown at 37 °C in a humidified incubator set at 5% CO2. Cells were subcultured after they formed a monolayer on the flask. The cells were detached by treating them with trypsin-EDTA (0.25% trypsin containing 0.01% EDTA) for 10 minutes and then by adding complete medium to inhibit the reaction. Cytotoxicity was measured by the XTT method using the Cell Proliferation Kit II. The method described by Zheng et al. was used to perform the assay. Cells were seeded (100 μL) in a 96-well microtiter plate (concentration 1 × 10^5 cells/mL). The plate was then incubated for 24 h at 37 °C and 5% CO2 to allow the cells to attach to the bottom of the wells. The compounds were each prepared to a stock solution of 20 mg/mL and added to the microtiter plate. Serial dilutions were made to range from a concentration of 100 μg/mL–0.7 μg/mL for each compound. The microtiter plate was incubated for a further 72 h. The control wells included vehicle-treated cells exposed to 2% DMSO and the positive control Actinomycin D, with concentrations ranging between 0.5 μg/mL and 0.002 μg/mL. After the 72 h incubation period, the XTT reagent (50 μL) was added to a final concentration of 0.3 mg/mL and the plate was then further incubated for another 2 h. After the incubation the absorbance of the color complex was read at 490 nm with a reference wavelength set at 690 nm. […] The IC50 values were reported at ±95% confidence intervals (±95% CI). The results were analyzed using the GraphPad Prism 4 program.

HeLa cells = experiment: XTT cytotoxicity assay in HeLa cells; conditions: IC50 in Vero cell line / IC50 in HeLa
Experimental: as §1

Compound | SI Values U937 (U937 cells) | SI Values HeLa (HeLa cells)
CC1=CCCC(C)=CCC(O)(C(C)C)CCC(C)=CCC1 (stereo not shown) [Compound 1, sarcophytol M] | 0.75 | 0.8
C=C1CCC(C(C)C)=CC2C1CCC2(C)O (stereo not shown) [Compound 2, alismol] |  | 1.6
C=C(CC[C@@H](C)[C@H]1CCC2C3CC=C4C[C@@H](O)CC[C@]4(C)C3CC[C@@]21C)C(C)C (stereo partly drawn) [Compound 3, 24-methylcholesta-5,24(28)-diene-3β-ol] |  | 2.1
CO[C@]1(C)CCC(C(C)C)=C[C@H]2[C@H]1CC[C@]2(C)O [Compound 4, 10-O-methyl alismoxide] | 1.00 | 1.3
CCCCCCCCCCCCCCCCOC[C@@H](O)CO [Compound 6, (S)-chimyl alcohol] |  | 2.6
C=C(CCC(C)C1CCC2C3C(OC(C)=O)C=C4CC(O)CCC4(CO)C3CCC12C)C(C)C (stereo not drawn) [Compound 7, 7β-acetoxy-24-methylcholesta-5-24(28)-diene-3,19-diol] | 2.9 | 8.1 and 7.2
C=C(CC[C@@H](C)[C@H]1CCC2C3C(CC[C@@]21C)[C@@]1(CO)CC[C@H](O)CC1=C[C@@H]3O)C(C)C (stereo partly drawn) [Compound 9, 24-methylcholesta-5,24(28)-diene-3β,7β,19-triol] |  | 1.4

Reference: PMC3877894, “Cytotoxic, Cytostatic and HIV-1 PR Inhibitory Activities of the Soft Coral Litophyton arboreum” (Marine Drugs, 2013)
